We go through one molecule from article PMC5741678, “Specificity Characterization of SLA Class I Molecules Binding to Swine-Origin Viral Cytotoxic T Lymphocyte Epitope Peptides in Vitro” (2017).

The target of the experiment is partner chain of the complex shown. Put plainly: ELISA. Conditions: parent: 0.73; read off a plot. On the technique in general: ELISA stands for enzyme-linked immunosorbent assay.

B1: unnamed (protein)
parent chain 1: ENALLVALF
parent chain 2: GPHSLSYFYTAVSRPDRGDSRFIAVGYVDDTQFVRFDNYAPNPRMEPRVPWIQQEGQEYWDRETRNVKETAQTYGVGLNTLRGYYNQSEAGSHTLQSMYGCYLGPDGLLLHGYRQDAYDGADYIALNEDLRSWTAADMAAQITKRKWEAADEAERRRSYLQGLCVESLRRYLEMGKDTLQRAEPPKTHVTRHPSSDLGVTLRCWALGFYPKEISLTWQREGQDQSQDMELVETRPSGDGTFQKWAALVVPPGEEQSYTCHVQHEGLQEPLTLRWD
parent chain 3: VARPPKVQVYSRHPAENGKPNYLNCYVSGFHPPQIEIDLLKNGEKMNAEQSDLSFSKDWSFYLLVHTEFTPNAVDQYSCRVKHVTLDKPKIVKWDRDH
Take B1: the response (relative OD value) was determined as 3.4.
